Target: Acetylcholinesterase (Homo sapiens, UniProt P22303)
Assay: Inhibition of human AChE using acetylthiocholine as substrate after 4 hrs by robotic spectrophotometric assay; call rule not given here

Chains of the proteins cited; added tags and fusions are not shown. Residues count along the entry.
UniProt P22303, 32-614 limits assumed: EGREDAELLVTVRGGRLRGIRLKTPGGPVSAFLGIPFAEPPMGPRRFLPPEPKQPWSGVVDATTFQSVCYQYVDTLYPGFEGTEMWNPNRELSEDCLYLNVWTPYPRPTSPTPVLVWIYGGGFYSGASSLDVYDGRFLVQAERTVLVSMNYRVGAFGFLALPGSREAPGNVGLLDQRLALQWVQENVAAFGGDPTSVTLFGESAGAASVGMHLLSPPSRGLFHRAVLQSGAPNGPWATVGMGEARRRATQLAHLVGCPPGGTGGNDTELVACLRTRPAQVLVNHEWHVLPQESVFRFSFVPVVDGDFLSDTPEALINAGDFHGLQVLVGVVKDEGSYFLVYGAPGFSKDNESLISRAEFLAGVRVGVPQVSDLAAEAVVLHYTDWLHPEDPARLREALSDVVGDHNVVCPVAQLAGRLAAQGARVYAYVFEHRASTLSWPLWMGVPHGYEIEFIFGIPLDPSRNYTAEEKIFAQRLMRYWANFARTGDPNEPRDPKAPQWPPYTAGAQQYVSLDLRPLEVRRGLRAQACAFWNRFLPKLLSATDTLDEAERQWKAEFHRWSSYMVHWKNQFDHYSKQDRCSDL

Row | SMILES | Ki
1 | O=C(/C=N/O)NCCCNc1c2c(nc3ccccc13)CCCC2 | 6.22 µM
2 | O=C(/C=N/O)c1cnc(OCC2CCN(Cc3ccccc3)CC2)nc1 | 55.2 µM
3 | CC(=O)/C=N/O | Not Active
4 | O=C(/C=N/O)c1ccc(OCC2CCN(Cc3ccccc3)CC2)nc1 | 31.2 µM
5 | N#C/C(=N\O)C(=O)NCCCNc1c2c(nc3ccccc13)CCCC2 | 3.08 µM
6 | O=C(/C=N/O)NCCCCNc1c2c(nc3ccccc13)CCCC2 | 1.49 µM

Reference: ChEMBL document CHEMBL3232718, “Design, synthesis, and characterization of novel, nonquaternary reactivators of GF-inhibited human acetylcholinesterase” (2014)
